Pooled drug test results. Numbers come from NIAID ChemDB, via PubChem.

Shared fields: growth or infection tests; organism: HIV-1; read by: p24; read-out: EC50

Blank or dashed fields: not listed here.

smiles | cells | conditions | mutations | strain | value
O=c1[nH]cnc2c1ncn2[C@H]1CC[C@@H](CO)O1 | MT-2 | - | RT-K65R | K65R(RT-K65R) | 7.9 µM
CC(C)(C)NC(=O)[C@@H]1C[C@@H]2CCCC[C@@H]2CN1C[C@@H](O)[C@H](Cc1ccccc1)NC(=O)[C@H](CC(N)=O)NC(=O)c1ccc2ccccc2n1 | MT-4 | - | PR-M46I V82T I84V | NL4-3 | <0.05 µM
N[C@@H](CCC(=O)N[C@@H](CS)C(=O)NCC(=O)O)C(=O)O | MOLT-4 | - | - | IIIB | >3000 µM
COc1cc(C[C@H](C)[C@H](C)Cc2ccc(O)c(O)c2)ccc1O | PBMC | - | - | MN | 1.6 µg/mL
CCCCCCCCCCCCCCCCCCCCCCOC[C@H](CO[C@]1(C(=O)O)C[C@H](OS(=O)(=O)O)[C@@H](NC(C)=O)[C@H]([C@H](OS(=O)(=O)O)[C@@H](COS(=O)(=O)O)OS(=O)(=O)O)O1)OCCCCCCCCCCCCCCCCCCCCCC | PBMC | - | - | 9446 Clinical isolate | 10 µM
[N-]=[N+]=N[C@H]1C[C@H](n2ccc(N)nc2=O)O[C@@H]1CO | MT-2 | - | - | LAI WT | 15.6 µM
CCCCN1C(=O)[C@@H]([C@H](O)C2CCCCC2)NC(=O)C12CCN(Cc1ccc(Oc3ccc(C(=O)O)cc3)cc1)CC2 | PBMC | - | - | JR-FL R5 | 0.0001 µM
Cc1cn([C@H]2C[C@H](N=[N+]=[N-])[C@@H](CO)O2)c(=O)[nH]c1=O | MT-2 | - | - | NL4-3 | 0.002 µM
CC(C)(C)OC(=O)N[C@@H](Cc1ccccc1)[C@H](O)CNC[C@@H](O)[C@H](Cc1ccc(OCC(=O)N2CCOCC2)cc1)NC(=O)OC(C)(C)C | PBMC | - | - | A018C | 0.11 µM
Nc1ccn([C@H]2CC[C@@H](CO)O2)c(=O)n1 | CBMC | - | RT-M184V | HXB2D (RT-M184V) | 2.2 ± 0.3 µM
Oc1ccc(/C=C/c2cc(O)cc(O)c2)cc1 | PBMC | - | RT-K65R L74V M184V | ddI-resistant (RT K65R/L74V/M184V) | >5 µM
CCCCCCCCCCCCCCCCCCOC[C@H](CO[C@]1(C(=O)O)C[C@H](OS(=O)(=O)O)[C@@H](NC(C)=O)[C@H]([C@H](OS(=O)(=O)O)[C@@H](COS(=O)(=O)O)OS(=O)(=O)O)O1)OC | H9 | - | - | IIIB | 19 µM
COc1ccc(CN[C@@H](C(=O)N[C@H]2c3ccccc3C[C@H]2O)[C@H](O)[C@H](Cc2ccccc2)NC(=O)[C@@H](NC(=O)OCc2ccccc2)C(C)(C)C)cc1 | MOLT4 + MOLT-4 | - | - | IIIB | 0.088 µM
Cc1cn([C@H]2C[C@H](N=[N+]=[N-])[C@@H](CO)O2)c(=O)[nH]c1=O | PBMC | - | - | IIIB | 0.003 µM
O=C(NCc1ccc(F)cc1)c1nc(N2CCCCS2(=O)=O)c2cccnc2c1O | Macrophage | - | - | BaL | <0.035 µM
CC(C)[C@H](NC(=O)N(C)Cc1ccccn1)C(=O)N[C@@H](Cc1ccccc1)[C@H](O)[C@@H](O)[C@H](Cc1ccccc1)NC(=O)[C@@H](NC(=O)N(C)Cc1ccccn1)C(C)C | MT-4 | - | - | NL4-3 | 0.1 µM
CN1CCOCC1c1nc(C(=O)NCc2ccc(F)cc2)c(O)c(=O)[nH]1 | MT-4 | 50% human serum | - | - | <0.24 µM
CCc1cc(NCc2nc3c(Cl)ccc(Cl)c3o2)c(=O)[nH]c1C | CEM | clinical isolate | - | A018A/H112-2 | <0.25 µM
CN(C)C(c1ccccc1)c1nc(C(=O)NCc2ccc(F)cc2)c(O)c(=O)[nH]1 | MT-4 | 10% FBS | - | - | <0.3 µM
Cc1cn([C@H]2C[C@H](N=[N+]=[N-])[C@@H](CO)O2)c(=O)[nH]c1=O | MT-2 | - | PR-A71T | NL4-3 | 0.004 µM
Nc1ccn([C@@H]2CO[C@H](CO)S2)c(=O)n1 | C8166 | - | - | HXB2 | 2 µM
CCCCCCCC/C=C/CCCCCCCC(=O)OCC(COP(=O)([O-])OC[C@@H]1CC[C@H](n2ccc(N)nc2=O)O1)OC(=O)CCCCCCC/C=C/CCCCCCCC | CEM-CCRF | - | - | LAV | 0.52 µM
Cc1cn([C@H]2C[C@H](N=[N+]=[N-])[C@@H](COP(=O)(OCCSC(=O)C(C)C)OCCSC(=O)C(C)C)O2)c(=O)[nH]c1=O | MOLT-4/8 | - | - | RF | 0.018 µM
CC(C)CN(C[C@@H](O)[C@H](Cc1ccccc1)NC(=O)[C@@H](NC(=O)CNCc1cccc(F)c1)C(C)(C)C)S(=O)(=O)c1ccc(N)cc1 | MT-4 | - | - | HXB2 | <0.012 µM
Cc1ccccc1Cc1cccc(C(=O)CC(=O)C(=O)O)c1 | MT-4 | - | - | IIIB | <0.61 µM
CCOP(=O)(N[C@@H](C)C(=O)OC)OC[C@H]1O[C@@H](n2cc(C)c(=O)[nH]c2=O)C[C@@H]1N=[N+]=[N-] | C8166 | - | - | IIIB | 4 µM
Cc1c(O)cccc1C(=O)N[C@@H](CSc1ccccc1)[C@H](O)CN1C[C@H]2CCCC[C@H]2C[C@H]1C(=O)NC(C)(C)C | PBMC | - | PR-M46I L63P A71V V82F I84V | HXB2 | <0.45 µM
O=c1[nH]cnc2c1ncn2[C@H]1CC[C@@H](CO)O1 | PBMC | - | MDR | MM | 3.9 µM
CCCCCCCCCCCCCCCCCCCCCCOC[C@H](CO[C@@]1(C(=O)O)C[C@H](OS(=O)(=O)O)[C@@H](NC(C)=O)[C@H]([C@H](OS(=O)(=O)O)[C@@H](COS(=O)(=O)O)OS(=O)(=O)O)O1)OCCCCCCCCCCCCCCCCCCCCCC | H9 | - | - | IIIB | 2 µM
CCCCN1C(=O)C(CC2CCCCC2)NC(=O)C12CCN(Cc1ccc3c(c1)OCCO3)CC2 | PBMC | - | MDR | JSL | 0.06 µM
CC(C)[C@H](NC(=O)N(C)Cc1ccccn1)C(=O)N[C@@H](Cc1ccccc1)[C@H](O)[C@H](O)[C@H](Cc1ccccc1)NC(=O)[C@@H](NC(=O)N(C)Cc1ccccn1)C(C)C | MT-4 | - | PR-M46I | NL4-3 | 0.2 µM
Cc1cn([C@H]2C[C@H](N=[N+]=[N-])[C@@H](CO)O2)c(=O)[nH]c1=O | PBMC | - | - | M011190 | 0.04 µM
CCCCCCCCCCCCCCCCCCCCCCOCC(C)(COCCCCCCCCCCCCCCCCCCCCCC)CO[C@]1(C(=O)O)C[C@H](OS(=O)(=O)O)[C@@H](NC(C)=O)[C@H]([C@H](OS(=O)(=O)O)[C@@H](COS(=O)(=O)O)OS(=O)(=O)O)O1 | PBMC | - | - | 10001 Clinical isolate | 40 µM
Cc1cn([C@H]2C[C@H](N=[N+]=[N-])[C@@H](CO)O2)c(=O)[nH]c1=O | CEM-CCRF | - | - | LAV | 0.11 µM
Cc1cn([C@H]2C[C@H](N=[N+]=[N-])[C@@H](CO)O2)c(=O)[nH]c1=O | MT-2 | - | RT-T215Y | T215Y(RT-T215Y) | 0.09 µM
Cc1ccnc(C(=O)CC(=O)c2cc(Cc3ccccc3)cc(CN3CCCS3(=O)=O)c2)c1 | MT-4 | - | - | IIIB | <0.51 µM
Cc1cn([C@H]2C=C[C@@H](CO)O2)c(=O)[nH]c1=O | PBMC | - | MDR | TM | 0.05 µM
Cc1cn([C@H]2C[C@H](N=[N+]=[N-])[C@@H](COP(=O)(Oc3ccc([N+](=O)[O-])cc3)Oc3ccc([N+](=O)[O-])cc3)O2)c(=O)[nH]c1=O | C8166 | - | - | IIIB | 0.0032 µM
Nc1ncnc2c1ncn2CCOCP(=O)(O)O | MT-2 | - | - | HXB2 | 1.4 µM
CCN(c1ncccc1NC(C)(C)C)C1CCN(C(=O)c2cc3cc(NS(C)(=O)=O)ccc3[nH]2)CC1 | PBMC | - | - | Isolate 472 | <0.18 µM
Cc1cn([C@H]2C[C@H](N=[N+]=[N-])[C@@H](CO)O2)c(=O)[nH]c1=O | PBL | - | - | IIIB | 0.0374 µM
Cc1cn([C@H]2C[C@H](N=[N+]=[N-])[C@@H](COP(=O)(OCCSC(=O)C(C)(C)C)OCCSC(=O)C(C)(C)C)O2)c(=O)[nH]c1=O | MOLT-4/8 | - | - | RF | 0.012 µM
CC(C)(C)OC(=O)N[C@@H](Cc1ccccc1)[C@H](O)CNC[C@@H](O)[C@H](Cc1ccc(OCC(=O)N2CCOCC2)cc1)NC(=O)OC(C)(C)C | MT-2 | - | - | RF | 0.03 µM
Cc1cn([C@H]2C[C@H](N=[N+]=[N-])[C@@H](CO)O2)c(=O)[nH]c1=O | PBMC/HIV-1 + PBMC | - | - | Primary clinical isolate Rome | <3.7 µM
O=c1[nH]cnc2c1ncn2[C@H]1CC[C@@H](CO)O1 | C8166 | - | - | HXB2 | 1.8 µM
Nc1ccn([C@H]2CC[C@@H](CO)O2)c(=O)n1 | MOLT-4/8 | - | - | LAV1-BRU | 0.21 µM
Nc1ncnc2c1ncn2[C@@H]1O[C@H](CO)C[C@@H]1F | MT-2 | - | - | HXB2D | 5.3 µM
CC#CCN1C(=O)[C@H]([C@@H](O)C2CCCCC2)NC(=O)C12CCN(Cc1c(C)nn(-c3ccccc3)c1C)CC2 | PBMC | - | - | JR-FL R5 | 0.013 µM
C[C@H]1/C=C/[C@@]2(C)CC[C@@H](C(C)(C)O)[C@@H]2[C@@H](O)C[C@](C)(O)/C=C/C1 | PBMC | - | - | BAL R5 | 8.4 µM
CCc1cc(NCc2nc3c(C)ccc(C)c3o2)c(=O)[nH]c1C | H9 | - | - | IIIB | <0.15 µM
COC(=O)[C@H](C)NP(=O)(OC[C@H]1O[C@@H](n2cc(C)c(=O)[nH]c2=O)C[C@@H]1N=[N+]=[N-])Oc1ccccc1 | C8166 | - | - | IIIB | 0.08 µM
CC(C)(C)NC(=O)[C@@H]1C[C@@H]2CCCC[C@@H]2CN1C[C@@H](O)[C@H](Cc1ccccc1)NC(=O)[C@H](CC(N)=O)NC(=O)c1ccc2ccccc2n1 | PBMC | - | - | NL4-3 X4 | 0.01 µM
Cc1cn([C@H]2C[C@H](N=[N+]=[N-])[C@@H](CO)O2)c(=O)[nH]c1=O | PBMC | - | - | BaL | 0.004 µM
O=C1N(Cc2ccc(CO)cc2)[C@H](Cc2ccccc2)[C@H](O)[C@@H](O)[C@@H](Cc2ccccc2)N1Cc1ccc(CO)cc1 | MT-4 | - | PR-M46I V82T | NL4-3 | <0.4 µM
O=C1N(Cc2ccc(CO)cc2)[C@H](Cc2ccccc2)[C@H](O)[C@@H](O)[C@@H](Cc2ccccc2)N1Cc1ccc(CO)cc1 | PBMC | - | - | HXB2 | <0.018 µM
Cc1ccc(-c2ccc3c(c2)C=C(C(=O)Nc2ccc(C[N+](C)(C)C4CCOCC4)cc2)CCC3)cc1 | PBMC | - | - | JR-FL R5 | 0.005 µM
CCCCCCCCCCCCCCOC[C@H](CO[C@]1(C(=O)O)C[C@H](O)[C@@H](NC(C)=O)[C@H]([C@H](O)[C@H](O)CO)O1)OCCCCCCCCCCCCCC | H9 | - | - | IIIB | 56 µM

The last 7 rows once more:

smiles,cells,conditions,mutations,strain,value
COC(=O)[C@H](C)NP(=O)(OC[C@H]1O[C@@H](n2cc(C)c(=O)[nH]c2=O)C[C@@H]1N=[N+]=[N-])Oc1ccccc1,C8166,-,-,IIIB,0.08 µM
CC(C)(C)NC(=O)[C@@H]1C[C@@H]2CCCC[C@@H]2CN1C[C@@H](O)[C@H](Cc1ccccc1)NC(=O)[C@H](CC(N)=O)NC(=O)c1ccc2ccccc2n1,PBMC,-,-,NL4-3 X4,0.01 µM
Cc1cn([C@H]2C[C@H](N=[N+]=[N-])[C@@H](CO)O2)c(=O)[nH]c1=O,PBMC,-,-,BaL,0.004 µM
O=C1N(Cc2ccc(CO)cc2)[C@H](Cc2ccccc2)[C@H](O)[C@@H](O)[C@@H](Cc2ccccc2)N1Cc1ccc(CO)cc1,MT-4,-,PR-M46I V82T,NL4-3,<0.4 µM
O=C1N(Cc2ccc(CO)cc2)[C@H](Cc2ccccc2)[C@H](O)[C@@H](O)[C@@H](Cc2ccccc2)N1Cc1ccc(CO)cc1,PBMC,-,-,HXB2,<0.018 µM
Cc1ccc(-c2ccc3c(c2)C=C(C(=O)Nc2ccc(C[N+](C)(C)C4CCOCC4)cc2)CCC3)cc1,PBMC,-,-,JR-FL R5,0.005 µM
CCCCCCCCCCCCCCOC[C@H](CO[C@]1(C(=O)O)C[C@H](O)[C@@H](NC(C)=O)[C@H]([C@H](O)[C@H](O)CO)O1)OCCCCCCCCCCCCCC,H9,-,-,IIIB,56 µM

ECn is the concentration giving n% inhibition of infection, replication or growth. Lines come from different laboratories, so protocols vary.